Among the data in US6599892B2, “7-alkylidene cephalosporanic acid derivatives and methods of using the same” (Research Corporation Technologies, Inc., priority 1994, dated 2003) are IC50 values, retold here.

Amino acid sequences for entries named in this document (tags omitted). Residues count along the entry.
UniProt P62593, 24-286 Q37K limits assumed: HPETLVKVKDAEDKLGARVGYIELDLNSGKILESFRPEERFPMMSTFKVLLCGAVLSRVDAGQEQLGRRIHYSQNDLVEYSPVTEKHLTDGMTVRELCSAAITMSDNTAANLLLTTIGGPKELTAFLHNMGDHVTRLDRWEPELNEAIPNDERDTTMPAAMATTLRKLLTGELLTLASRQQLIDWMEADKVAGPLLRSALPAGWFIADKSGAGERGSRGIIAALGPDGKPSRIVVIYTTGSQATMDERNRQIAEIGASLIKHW
UniProt P05364, whole entry: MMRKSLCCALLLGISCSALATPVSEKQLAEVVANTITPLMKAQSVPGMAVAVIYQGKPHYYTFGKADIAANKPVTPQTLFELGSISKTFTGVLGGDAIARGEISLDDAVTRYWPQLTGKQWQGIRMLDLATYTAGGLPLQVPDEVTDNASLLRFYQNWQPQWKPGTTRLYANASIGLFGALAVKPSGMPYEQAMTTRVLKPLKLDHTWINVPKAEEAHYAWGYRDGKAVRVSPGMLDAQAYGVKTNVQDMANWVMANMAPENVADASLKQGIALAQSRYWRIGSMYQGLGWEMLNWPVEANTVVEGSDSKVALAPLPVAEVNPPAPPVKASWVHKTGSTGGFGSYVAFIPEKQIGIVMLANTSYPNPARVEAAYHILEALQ
UniProt P05364, 21-381 limits assumed: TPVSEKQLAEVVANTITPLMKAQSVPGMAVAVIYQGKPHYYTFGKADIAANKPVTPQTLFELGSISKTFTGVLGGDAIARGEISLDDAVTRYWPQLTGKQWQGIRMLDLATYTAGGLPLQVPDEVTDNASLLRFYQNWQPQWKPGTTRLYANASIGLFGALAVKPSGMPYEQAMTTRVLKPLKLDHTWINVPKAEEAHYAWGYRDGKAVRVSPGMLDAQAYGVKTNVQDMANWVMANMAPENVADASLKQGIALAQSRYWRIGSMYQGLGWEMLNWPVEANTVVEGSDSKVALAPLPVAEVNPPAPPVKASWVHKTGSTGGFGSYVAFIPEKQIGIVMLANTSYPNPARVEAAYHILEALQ

A value given as a limit tells only on which side of the number the result lay.

Assay [1] addresses E. coli. W3310 β-lactamase (TEM2) (Escherichia coli, UniProt P62593, Q37K). Conditions: tested form: Na salt.
For assay [2], the target named is Class C β-lactamase of Enterobacter cloacae P99 (Enterobacter cloacae, UniProt P05364). Conditions: read-out: IC50 (nM) E. cloacea P99; 10 minute incubation of enzyme and inhibitor; nitrocefin substrate; tested form: Na salt.
Assay [3] concerns the target E. cloacae SC 12368 β-lactamase (Enterobacter cloacae, UniProt P05364). The settings on record: read-out: IC50 (nM) E. cloacea SC12368; 10 minute incubation of enzyme and inhibitor; nitrocefin substrate; tested form: Na salt.

For `COC(=O)/C=C1/C(=O)N2C(C(=O)O)=C(COC(C)=O)CS(=O)(=O)C12` (stereo not drawn), the IC50 is 0.008 µM in assay [1], > 20000 nM in assay [2] and > 20000 nM in assay [3].
